Mutational tolerance of the Zika virus NS2B-NS3 protease

From the data files of Ni et al. 2025, doi:10.1038/s41467-025-63602-z.

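Libraries of single mutants were passaged as virus pools on Huh-7.5 cells. Deep sequencing gave the change in frequency of each mutant relative to wild type, averaged over three replicate libraries (two for positions 207-308). The aim was to find sites where inhibitor-binding pockets cannot change.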

Chain scanned (Zika virus MR766; NS2B from position 2 to 131, then the start of NS3):
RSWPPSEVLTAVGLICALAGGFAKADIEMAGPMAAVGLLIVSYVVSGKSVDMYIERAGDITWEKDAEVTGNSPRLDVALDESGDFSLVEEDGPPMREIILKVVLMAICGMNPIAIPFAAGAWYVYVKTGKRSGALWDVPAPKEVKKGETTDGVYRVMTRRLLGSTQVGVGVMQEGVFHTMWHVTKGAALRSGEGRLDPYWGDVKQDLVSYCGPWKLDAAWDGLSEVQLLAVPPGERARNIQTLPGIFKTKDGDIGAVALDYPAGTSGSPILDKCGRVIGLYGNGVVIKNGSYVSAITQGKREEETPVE

Values are log2 effects on growth: 0 is wild type, lower means poorer growth.
Rows are sites, columns the new residue; wt marks the wild-type residue.
Values above 0 are not proof of better growth: six high scorers were tested one by one, five grew less well than wild type and one about as well.
Positions 1-103, 104-206 and 207-308 were made and measured as separate libraries.
An asterisk is a stop codon; stop codons read about -7, near the floor of the assay.
Position 1 still belongs to NS2A. In the paper, -1 or higher counts as tolerated.

site	G	A	V	L	I	M	F	W	Y	C	P	S	T	N	Q	D	E	K	R	H	*
A78	-7.57	wt	-0.38	0.63	0.15	0.69	0.43	-0.01	0.09	-0.21	-7.10	-0.43	-0.34	0.18	0.62	-0.59	0.34	0.43	0.18	0.38	-7.32
L79	-7.04	-6.79	-3.79	wt	-1.11	-5.10	-5.94	-6.22	-6.10	-5.63	-7.79	-7.62	-7.31	-6.31	-4.95	-5.69	-5.97	-6.44	-5.92	-6.95	-7.74
D80	-7.05	-6.80	-7.07	-7.33	-5.98	-5.64	-5.83	-5.86	-4.28	-5.86	-7.38	0.51	-7.25	-1.90	-5.92	wt	-5.97	-5.71	-7.43	-6.27	-7.48
E81	-6.60	-5.91	-7.08	-7.48	-5.69	-5.86	-6.00	-5.55	-6.19	-5.19	-7.47	-7.43	-7.36	-5.96	-6.50	-0.27	wt	-4.85	-7.39	-6.11	-4.37
S82	-5.46	-2.49	-7.48	-7.37	-6.85	-4.23	-2.08	-2.45	-2.52	-1.27	-7.89	wt	-7.89	1.24	-2.33	-4.45	-6.21	-6.70	-5.98	0.65	-7.98
G83	wt	-7.35	-4.83	-7.72	-6.00	-6.13	-5.93	-6.31	-0.22	-2.91	-7.52	-7.82	-7.66	-5.61	-6.03	-4.75	-6.25	-6.23	-7.87	-4.95	-2.47
D84	-7.21	-7.17	-7.07	-7.35	-6.19	-5.86	-5.82	-5.99	-2.93	-5.93	-7.27	-7.00	-7.62	-5.42	-5.92	wt	-5.93	-5.98	-7.29	-6.92	-7.07
F85	-5.76	-5.87	-5.91	-3.99	-3.91	-5.30	wt	-0.93	0.27	-3.98	-6.50	-5.43	-6.50	-4.65	-5.51	-4.51	-5.33	-5.84	-6.77	-4.94	-6.74
S86	-6.84	-4.24	-3.13	-6.71	-3.06	-3.04	-2.07	-2.46	-0.15	-2.56	-6.17	wt	-0.27	-4.79	-2.68	-5.82	-5.82	-3.59	0.22	1.56	-6.93
L87	-7.72	-7.20	-5.91	wt	-4.76	-6.78	-2.76	-6.84	-6.34	-6.06	-7.38	-7.52	-7.36	-6.25	-6.72	-5.85	-6.86	-7.08	-8.25	-6.34	-8.30
V88	-6.26	-6.46	wt	0.51	-0.05	-2.12	-5.20	-5.72	-4.76	-3.87	-6.86	-6.97	-4.46	-4.69	-4.19	-5.44	-5.44	-5.02	-6.38	-5.73	-6.56
E89	1.06	-1.76	-2.47	-2.92	-3.77	-1.68	-2.54	-5.13	-0.28	-0.82	-3.05	-0.43	-1.00	0.80	-1.44	0.88	wt	-3.52	-4.50	0.06	-6.09
E90	-0.33	0.18	-1.80	-2.58	-2.39	-1.32	-0.36	-0.27	-0.16	0.00	-0.10	-0.45	-1.80	-0.84	0.00	1.24	wt	-3.61	-4.61	-0.97	-4.19
D91	-0.85	-1.74	-1.40	-4.27	-2.53	-1.70	-2.88	-3.61	-1.79	0.09	-2.03	-1.12	-1.35	-1.10	-1.59	wt	-0.46	-5.60	-5.80	-1.29	-6.30
G92	wt	-2.63	-4.69	-1.90	-3.75	-1.82	-2.24	-1.52	-1.11	-3.07	-6.71	-3.26	-2.78	-6.37	-4.33	-6.35	-5.05	-4.47	-5.36	-4.64	-5.75

23 of these entries, quoted again:

| mutation | effect (log2) |
|---|---|
| D84Q | -5.92 |
| D80Q | -5.92 |
| V88K | -5.02 |
| D80P | -7.38 |
| G83V | -4.83 |
| G92F | -2.24 |
| G92K | -4.47 |
| L87W | -6.84 |
| G83F | -5.93 |
| S82C | -1.27 |
| L79Q | -4.95 |
| L87M | -6.78 |
| S82A | -2.49 |
| D80T | -7.25 |
| A78S | -0.43 |
| F85H | -4.94 |
| D91V | -1.40 |
| S86R | 0.22 |
| L87G | -7.72 |
| S82H | 0.65 |
| G83D | -4.75 |
| D80C | -5.86 |
| F85C | -3.98 |